Experimental data reported in article PMC4608832, “Synthesis of New 4-Aminoquinolines and Evaluation of Their In Vitro Activity against Chloroquine-Sensitive and Chloroquine-Resistant Plasmodium falciparum” (PLoS ONE, 2015).

Legend:
[1] = system: P. falciparum K1 (CQ-resistant); test: In vitro antiplasmodial activity, 3H-hypoxanthine incorporation, strain K1; type: cell-based, Plasmodium falciparum; conditions: RI = IC50 K1/IC50 3D7
Protocol: The following strains of Plasmodium falciparum were used in this study: F32 (Tanzania), Dd2 (SE Asia), K1 (SE Asia), FcB1 (Colombia), K14 (Cambodia) and 3D7 (Africa). […] Parasites at the ring stage (laboratory A) or asynchronous parasites (laboratory B) were grown in human A+ or O+ red blood cells at a 1.5% (laboratory A) or 2% (laboratory B) haematocrit and a 0.8–1% parasitaemia. Synchronization of the parasites was performed by sorbitol treatment.
Further dilutions were in complete culture medium. The complexes were tested for their inhibitory effect toward P. falciparum intraerythrocytic development. […] 100 μL from a culture at a 3% (laboratory A) or 4% (laboratory B) hematocrit in complete medium was added per well. […] Plates were freeze-thawed and harvested on filters. […] The percentage of growth inhibition was calculated from the parasite-associated radioactivity. 100% ^3H-hypoxanthine incorporation was determined from a control grown in the absence of drug or test compound.

human MRC-5 cell line = test: Cytotoxicity, MTT, MRC5 cells; type: cell-based; conditions: CC50 MRC5 / IC50 P. falciparum
Protocol: (§1) The rat L-6 and human MRC-5 cell lines were routinely grown in RPMI 1640 supplemented with 11 mM glucose, 27.5 mM NaHCO3, 100 UI/mL penicillin, 100 μg/mL streptomycin and 10% fetal calf serum (RPMI-FCS), in a 5% CO2 incubator at 37°C. For cytotoxicity assays, 100 μL per well of a 2×10^4 cells/mL suspension in RPMI-FCS were deposited in a 96-well microplate and incubated overnight in culture conditions. Then decreasing concentrations of the compounds to test were established by twofold serial dilutions in RPMI-FCS and distributed at a rate of 100 μL per well and the microplate was put back in the incubator for an additional three (L-6) or five (MRC-5) day period. Then the supernatant in each well was discarded and replaced by 100 μL of MTT 1 mg/mL in RPMI-FCS. The microplate was re-incubated in culture conditions for three hours, then 100 μL of 10% SDS was added by well. The cells were left overnight in the incubator then the OD at 540nm was measured with the Bio-Tek FL600™ microplate reader equipped with the KC4™ software. […] The selectivity of each compound to P. falciparum was assessed through the selectivity index (SI), defined as CC50 (to L6 or MRC5 cells) / IC50 (to P. falciparum).

rat L-6 cell line = test: Cytotoxicity, MTT, L6 cells; type: cell-based; conditions: CC50 L6 / IC50 P. falciparum
Protocol: as §1

Row | Compound | Resistance Index K1/3D7 ([1]; laboratory A) | Resistance Index K1/3D7 ([1]; laboratory B) | SI (min-max), MRC5, CQR strains (human MRC-5 cell line; CQ-resistant strains) | SI (min-max), MRC5, CQS strains (human MRC-5 cell line; CQ-sensitive strains) | SI (min-max), L6, CQR strains (rat L-6 cell line; CQ-resistant strains) | SI (min-max), L6, CQS strains (rat L-6 cell line; CQ-sensitive strains)
1 | CCN(CC)Cc1cc(Nc2ccnc3cc(Cl)ccc23)ccc1O [AQ, amodiaquine, reference compound] | 1.4 | 0.8 | – | – | – | –
2 | CCN(CC)Cc1ccccc1CNc1ccnc2cc(Cl)ccc12 [Compound 1, 7-Chloro-N-(2-((diethylamino)methyl)benzyl)quinolin-4-amine] | 3.9 | 0.7 | 421–2182 | 880–1955 | 442–2289 | 923–2052
3 | CCN(CC)Cc1cccc(CNc2ccnc3cc(Cl)ccc23)c1 [Compound 2, 7-Chloro-N-(3-((diethylamino)methyl)benzyl)quinolin-4-amine] | 3.5 | 0.7 | – | – | – | –
4 | CCN(CC)Cc1ccc(CNc2ccnc3cc(Cl)ccc23)cc1 [Compound 3, 7-Chloro-N-(4-((diethylamino)methyl)benzyl)quinolin-4-amine] | 3.5 | 0.8 | – | – | – | –
5 | CCN(CC)Cc1ccc(-c2ccc(CNc3ccnc4cc(Cl)ccc34)cc2)cc1 [Compound 4, 7-Chloro-N-((4’-((diethylamino)methyl)-[1,1’-biphenyl]-4-yl)methyl)quinolin-4-amine] | 3.5 | 0.9 | – | – | – | –
